Laboratory results: PubChem BioAssay AID1259414 (Drosophila RNAi Screening Center, 2018)

Assay: 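Host factors increasing or decreasing Wolbachia levels in cultured fly cells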 (primary screen)
Cells: Drosophila JW18 cells infected with Wolbachia
Reagents: long dsRNA against Drosophila genes, 0.25 µg dsRNA per well of a 384-well plate
Duration: 5 days
Treatment: cells persistently infected with Wolbachia before knock-down; no added drug
Detection: 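Imaged fluorescence in situ signal for Wolbachia 23S rRNA per DAPI-counted host cell, given as a robust z-score within each plate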
Direction: Wolbachia per cell robust z: higher = more Wolbachia per host cell than the plate typical
Rule for the call: 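Active if absolute robust z reaches 1.5 in two or more of three replicates, leaving out multi- or no-target dsRNAs, genes unexpressed in JW18 and A1 wells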
The screen tested about 24,000 reagents; below is a random part of those with a known target gene and a result. Over the whole deposit, about 1,210 (5%) were called active. 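Inactive calls also include excluded dsRNAs with several or no targets, genes unexpressed in JW18, and well A1, regardless of score.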

gene | dsRNA | Wolbachia per cell robust z, rep 1 | Wolbachia per cell robust z, rep 2 | Wolbachia per cell robust z, rep 3 | call
fuss (fussel) | DRSC17200 | -0.743 | 0.344 | -0.505 | inactive
fuss (fussel) | DRSC21452 | -1.02 | 0.565 | -0.0637 | inactive
CG18735 | DRSC04312 | -1.83 | 0.543 | -5.08 | inactive
CG18735 | DRSC24372 | -0.0023 | -1.12 | -1.66 | inactive
CG6912 | DRSC16132 | -0.731 | 0.587 | -1.89 | inactive
CG18130 | DRSC19790 | -4.54 | -3.49 | -0.583 | inactive
CG18130 | DRSC24767 | 0.918 | -0.0109 | 0.0648 | inactive
Mhcl (Myosin heavy chain-like) | DRSC13130 | 0.165 | 1.06 | 0.517 | inactive
Mhcl (Myosin heavy chain-like) | DRSC14216 | 0.527 | 0.335 | -0.339 | inactive
Mhcl (Myosin heavy chain-like) | DRSC16753 | -1.1 | -0.717 | -1.01 | inactive
Or85c (Odorant receptor 85c) | DRSC16766 | 0.236 | 1.35 | 1.34 | inactive
CG17290 | DRSC06662 | 0.156 | -1.69 | 0.38 | inactive
CG17290 | DRSC27119 | 0.726 | -0.348 | -2.85 | inactive
Ufsp1 (UFM1 specific peptidase 1) | DRSC04958 | 0.795 | -0.0607 | 0.131 | inactive
Ufsp1 (UFM1 specific peptidase 1) | DRSC27352 | 1.05 | 0.588 | 0.563 | inactive
GluRIIB (Glutamate receptor IIB) | DRSC03335 | 1.42 | -0.0394 | 0.882 | inactive
sr (stripe) | DRSC13284 | -0.91 | -4.24 | -0.151 | inactive
sr (stripe) | DRSC25793 | -0.0471 | 0.145 | -0.971 | inactive
mahj (mahjong) | DRSC04053 | 0.654 | -0.127 | 0.302 | inactive
CG7720 | DRSC16306 | -0.542 | 0.349 | 0.339 | inactive
CG7720 | DRSC16307 | 0.691 | 0.0733 | 1.34 | inactive
CG13426 | DRSC06388 | -1.2 | 0.109 | -2.54 | inactive
CG13950 | DRSC00368 | -1.12 | -4.09 | 0.125 | inactive
CG13950 | DRSC27405 | -3.99 | -1.74 | -0.333 | inactive
PGAP1 (Post-GPI attachment to proteins 1) | DRSC18286 | 0.665 | 0.0288 | 0.654 | inactive
PGAP1 (Post-GPI attachment to proteins 1) | DRSC28989 | 0.816 | 1.37 | -0.105 | inactive
CG10681 | DRSC09777 | -5.65 | 0.0128 | 0.261 | inactive
CG10681 | DRSC21484 | 0.114 | 1.23 | 1.09 | inactive
CG10681 | DRSC27329 | -5.1 | -0.105 | 0.527 | inactive
tara (taranis) | DRSC23014 | 0.000471 | -0.78 | -0.721 | inactive
tara (taranis) | DRSC29664 | -0.626 | -0.491 | -0.261 | inactive
tara (taranis) | DRSC40779 | 0.425 | -0.298 | 1.32 | inactive
Mlp60A (Muscle LIM protein at 60A) | DRSC04623 | 1.05 | 0.0484 | 1.05 | inactive
Mlp60A (Muscle LIM protein at 60A) | DRSC22233 | 0.581 | 0.55 | -0.513 | inactive
Mlp60A (Muscle LIM protein at 60A) | DRSC22481 | -0.419 | 0.389 | 0.408 | inactive
tral (trailer hitch) | DRSC09779 | 0.626 | 1.1 | -0.778 | inactive
tral (trailer hitch) | DRSC25049 | -0.591 | -3.23 | -0.588 | inactive
Prosalpha3T (Proteasome alpha3 subunit, Testis-specific) | DRSC15226 | 0.179 | 0.168 | 0.118 | inactive

7 entries from above in another layout:
| gene | dsRNA | Wolbachia per cell robust z, rep 1 | Wolbachia per cell robust z, rep 2 | Wolbachia per cell robust z, rep 3 | call |
| --- | --- | --- | --- | --- | --- |
| CG18130 | DRSC19790 | -4.54 | -3.49 | -0.583 | inactive |
| CG18130 | DRSC24767 | 0.918 | -0.0109 | 0.0648 | inactive |
| Mhcl (Myosin heavy chain-like) | DRSC13130 | 0.165 | 1.06 | 0.517 | inactive |
| Mhcl (Myosin heavy chain-like) | DRSC14216 | 0.527 | 0.335 | -0.339 | inactive |
| Mhcl (Myosin heavy chain-like) | DRSC16753 | -1.1 | -0.717 | -1.01 | inactive |
| Or85c (Odorant receptor 85c) | DRSC16766 | 0.236 | 1.35 | 1.34 | inactive |
| CG17290 | DRSC06662 | 0.156 | -1.69 | 0.38 | inactive |

Continued:
gene | dsRNA | Wolbachia per cell robust z, rep 1 | Wolbachia per cell robust z, rep 2 | Wolbachia per cell robust z, rep 3 | call
CG7342 | DRSC16230 | 2.05 | 2.01 | 0.426 | active
p130CAS | DRSC07862 | -0.921 | 1.37 | 0.694 | inactive
p130CAS | DRSC08257 | 0.489 | 0.145 | -0.237 | inactive
p130CAS | DRSC26616 | 1.35 | 2.04 | 1.24 | inactive
Tbp (TATA binding protein) | DRSC23111 | 0.691 | 0.522 | -1.06 | inactive
side-II (sidestep II) | DRSC01913 | 1.15 | -0.675 | 0.989 | inactive
side-II (sidestep II) | DRSC01932 | -1.83 | -0.706 | -0.221 | inactive
side-II (sidestep II) | DRSC02480 | 1.14 | 0.286 | -0.243 | inactive
side-II (sidestep II) | DRSC22508 | 0.135 | 0.319 | 0.141 | inactive
side-II (sidestep II) | DRSC25118 | 0.925 | 0.178 | 0.85 | inactive
l(2)05714 (lethal (2) 05714) | DRSC03118 | -0.145 | 1.23 | -0.0437 | inactive
l(2)05714 (lethal (2) 05714) | DRSC29829 | 0.392 | 0.437 | 0.86 | inactive
slpr (slipper) | DRSC18225 | 2.49 | 1.4 | 1.04 | inactive
slpr (slipper) | DRSC23321 | 0.707 | 0.624 | 1.14 | inactive
Nuf2 | DRSC03123 | 0.0662 | 0.46 | 0.248 | inactive
CalpB (Calpain-B) | DRSC11109 | 0.442 | -0.0351 | 0.00371 | inactive
CalpB (Calpain-B) | DRSC25885 | -1.86 | -1.31 | -1.46 | inactive
CG5883 | DRSC10552 | 0.278 | -1.02 | -0.528 | inactive
CG15034 | DRSC17966 | -6.83 | 0.136 | -0.368 | inactive
Acsl (Acyl-CoA synthetase long-chain) | DRSC07252 | 1.37 | 1.41 | 0.679 | inactive
tRNA:Leu-CAA-2-3 (transfer RNA:Leucine-CAA 2-3) | DRSC13633 | -0.637 | 0.321 | 0.243 | inactive
Cdc7 (Cdc7 kinase) | DRSC18429 | 0.0495 | -0.388 | -3.41 | inactive
Cdc7 (Cdc7 kinase) | DRSC27819 | -0.372 | 1.18 | 1 | inactive
Fer2 (48 related 2) | DRSC15925 | 1.45 | 0.234 | -0.051 | inactive
CkIIalpha-i1 (CKII-alpha subunit interactor-1) | DRSC11115 | -0.526 | -1.72 | 0.171 | inactive
CG33654 | DRSC37818 | 0.618 | 0.553 | 2.72 | inactive
hd (humpty dumpty) | DRSC12316 | 0.966 | 0.579 | 0.835 | inactive
hd (humpty dumpty) | DRSC26302 | -1.44 | 0.249 | -0.797 | inactive
CG10597 | DRSC19357 | -3.7 | -1.85 | -4.68 | inactive
CG10597 | DRSC25101 | -10.2 | 1.14 | -0.601 | inactive
